Anti-infective test results gathered from many reports (values: NIAID ChemDB through PubChem).

All rows: growth or infection tests; organism: HIV-1; measure: EC50

ECn is the concentration giving n% inhibition of infection, replication or growth. Blank or dashed fields: not listed here. Neighbouring rows are from separate reports. Two numbers with a dash give a range or band.

smiles	setting	cell line	strain or isolate	changes	method	value
Cc1cn([C@H]2C[C@H](N=[N+]=[N-])[C@@H](CO)O2)c(=O)[nH]c1=O	3 d	MAGI + MAGI-CCR5	IIIB	-	β-galactosidase	0.056 µM
Cc1cc(S(N)(=O)=O)ccc1NC(=O)COc1ccc(Cl)cc1C(=O)c1cc(C#N)cc(N(C)C)c1	-	HeLa	-	Y181C	-	0.0028 µM
Cc1c(Sc2ccccc2)n(COCCO)c(=O)[nH]c1=O	-	CEM(DAY 8) + CEM	IIIB	-	cytopathic effect / MTT	8.3 µM
Cc1ccnc2c1NC(=O)c1cccnc1N2C1CC1	3 d	MAGI + MAGI-CCR5	IIIB	-	β-galactosidase	0.298 µM
O=C(O)P(=O)(O)O	-	HT4LACZ-1 + HT4 LacZ-1	LAI viral clone (RT-Q161L H208Y)	RT-Q161L H208Y	syncytia	336 µM
CN(C)c1ccnc2sc(C(N)=O)c(N)c12	-	U1	-	-	p24 / ELISA	<0.28 µM
Cc1cn([C@H]2C[C@H](N=[N+]=[N-])[C@@H](CO)O2)c(=O)[nH]c1=O	-	ACH-2(HIV-1(IIIB)) + ACH2	IIIB	-	RT activity	>1 µg/mL
NC(=O)c1sc2cncc(N3CCC(F)(F)CC3)c2c1N	-	U1	-	-	p24 / ELISA	0.219 µM
Nc1ccn([C@@]23C[C@@H]2[C@@H](CO)CO3)c(=O)n1	-	HOS	-	-	luciferase	440 µM
CCCCCCCCCCCCCCCC(=O)OCC(COP(=O)(O)OC[C@H]1O[C@@H](n2cc(C)c(=O)[nH]c2=O)C[C@@H]1N=[N+]=[N-])OC(=O)CCCCCCCCCCCCCCC	-	CEM-CCRF	LAV	-	p24	4 µM
O=C(Nc1cc(S(=O)(=O)O)cc2cc(S(=O)(=O)O)c(N=Nc3ccc(N=Nc4c(S(=O)(=O)O)cc5cc(S(=O)(=O)O)cc(NC(=O)c6cccc(Cl)c6Cl)c5c4O)cc3)c(O)c12)c1ccc(Cl)cc1Cl	-	MONO/MACRO + Monocytes/macrophages	BaL	-	-	0.22 µg/mL
O=C(C1CSCN1C(=O)OCc1ccccc1)N1CCCC1	-	CEM/MOLT-4	LAV	-	syncytia	>100 µM
C#Cc1ccc(Nc2nccc(Oc3c(C)cc(-c4cn(Cc5ccccc5[N+](=O)[O-])nn4)cc3C)n2)cc1	-	MT-4	IIIB	K103N	MTT	0.31 µM
S=C(NCCc1cccs1)Nc1ccc(Br)cn1	-	HT4 + HeLa	H292-1 Clinical isolate	-	plaque count	0.066 µM
Cc1ccc(-c2ccc3c(c2)C=C(C(=O)Nc2ccc(C[N+](C)(C)C4CCOCC4)cc2)CCC3)cc1	-	TZM-bl + HL2/3	-	-	cell fusion / luminescence	3.65 µM
CN=C1CN=C(c2ccc[nH]2)c2cc(Cl)ccc2N1	chronic infection	CEM/1(N1T-E) + CEM	N1T-E	-	p24	0.01–0.1 µM
CC(=O)N1CCc2nc(C)n(C3C[C@H]4CC[C@@H](C3)N4CCC(CNS(=O)(=O)c3ccccc3)c3ccccc3)c2C1	-	HOS-CD4-CCR5	-	-	luciferase	<0.01 µM
CC(C)Nc1cccnc1N1CCN(C(=O)c2cc3cc4c(cc3[nH]2)OCO4)CC1	-	HT4lacZ-1/IIIB + HT4 LacZ-1	IIIB	-	syncytia	0.072 µM
NC(=O)c1cc2c(-c3cnc4ccccc4c3)cncc2s1	-	U1	-	-	p24 / ELISA	0.066 µM
C[C@H](Cn1cnc2c(N)ncnc21)OCP(=O)(O)O	4 d	PBMCs	UG-92-031 (subtype A)	-	p24 / ELISA / antigen	1.8 µM
CC(=O)O[C@@H]1[C@H](OC(=O)CC(C)C)c2c(ccc3ccc(=O)oc23)OC1(C)C	12 d	Monocytes	-	-	p24	<4 µg/mL
Cc1cc2c(N)c(C(N)=O)sc2nc1-c1ccc(F)cc1	-	U1	-	-	p24 / ELISA	6.19 µM
COc1ccc2c(c1)N(C(=O)OC(C)C)[C@@H](CSC)C(=S)N2	-	H9	A2(RT-L74V G190E)	RT-L74V G190E	p24	>10 µg/mL
Cc1cn([C@H]2C[C@H](N=[N+]=[N-])[C@@H](CO)O2)c(=O)[nH]c1=O	-	PBMCs	-	-	p24 / ELISA / antigen	0.015 µM
Cc1cn([C@H]2C[C@H](N=[N+]=[N-])[C@@H](CO)O2)c(=O)[nH]c1=O	-	CEM-SS	5346 WT	-	plaque count	0.001 µM
O=C1CN=C(c2ccc[nH]2)c2cc(Cl)ccc2N1	-	HUT-78/IIIB/LAI + HUT 78	IIIB/LAI	-	syncytia	>1 µM
CC(C)=CCOc1cc(NC(=S)c2ccoc2C)ccc1Cl	-	MAC	BaL	-	-	0.03 µM
COC(=O)[C@H](C)NP(=O)(OC[C@@H]1C=C[C@H](n2cc(C)c(=O)[nH]c2=O)O1)Oc1ccc(Br)cc1	-	PBMC	52534-2 NRTI resistant recombinant	RT-M41L T69ins L74V M184V L210W T215Y	p24	0.0579 µM
O=c1cc(O)c2ccccc2o1	-	ACH-2/HIV-1 + ACH2	-	-	p24 / ELISA	10 µM
CCOc1ccccc1N1CCN(C(=O)c2cc3ccccc3[nH]2)CC1	-	HT4lacZ-1/IIIB + HT4 LacZ-1	IIIB	-	syncytia	4.85 µM
O=C(C1CSCN1C(=O)OCc1ccccc1)N1CCOCC1	-	CEM/MOLT-4	LAV	-	syncytia	>30 µM
Cc1cc(S(N)(=O)=O)ccc1NC(=O)COc1ccc(Cl)cc1C(=O)c1cc(C#N)cc(CO)c1	-	HeLa	-	WTRVA	-	0.002 µM
C#Cc1ccc(Nc2nccc(Oc3c(C)cc(-c4cn(Cc5ccc([N+](=O)[O-])cc5)nn4)cc3C)n2)cc1	-	MT-4	IIIB	Y188L	MTT	≥36.49 µM
Cc1cn([C@H]2C[C@H](N=[N+]=[N-])[C@@H](CO)O2)c(=O)[nH]c1=O	-	PBMC	1617-1 NRTI resistant recombinant	RT-T69K K70G V75I F77L F116Y Q151M M184V	RT activity	0.174 µM
CN(C)c1cccc2c(S(=O)(=O)N3CCSC3c3cccnc3)cccc12	3 d	MAGI + MAGI-CCR5	HE-NEV	-	β-galactosidase	>2000 µM
CC[C@]1(c2ccccc2)Oc2cccnc2-n2cccc2C1=O	-	Macrophage + Macrophages	IIIB	-	-	0.57 µM
Nc1ncnc2c1ncn2CCOCP(=O)(O)O	-	CEM/AK- + CEM	-	-	syncytia	7 µM
CON(C)C(=O)c1cc(C#N)cc(C(=O)c2cc(Cl)ccc2OCC(=O)Nc2ccc(S(N)(=O)=O)cc2C)c1	-	HeLa	-	V106A	-	0.87 µM
O=C1CCN(CCOc2ccc(Cl)cc2C(=O)c2cc(Cl)cc(Cl)c2)C(=O)N1	pseudotyped	-	-	K103N + Y181C	RT activity	4.5 µM
CCCCCCCCCCCCSCC(COP(=O)([O-])OCC[N+](C)(C)C)OCCCCCCCCC(=O)OCC(=O)OC[C@H]1O[C@@H](n2cc(C)c(=O)[nH]c2=O)C[C@@H]1N=[N+]=[N-]	-	CEM-SS	5346 WT	-	plaque count	0.02 µM
Cc1cc(S(N)(=O)=O)ccc1NC(=O)COc1ccc(Cl)cc1C(=O)c1cc(C#N)cc(OC(F)(F)F)c1	-	HeLa	-	WTRVA	-	0.00009 µM
CC1=C(C(=O)Nc2ccc(Cl)c(C(=O)OC(C)C)c2)SCCO1	-	C-344	RF	-	-	2.1 µM
C#Cc1ccc(Nc2nccc(Oc3c(C)cc(-c4cn(Cc5cccc([N+](=O)[O-])c5)nn4)cc3C)n2)cc1	-	MT-4	IIIB	-	MTT	0.075 µM
Cc1ccnc2c1NC(=O)c1cccnc1N2C1CC1	-	MAGI	-	-	β-galactosidase	0.088 µM
COc1cc2c(O[C@@H]3OC[C@](O)(COC(C)=O)[C@H]3O)c3c(c(-c4ccc5c(c4)OCO5)c2cc1OC)C(=O)OC3	pseudotyped	A549	NL4-3	-	luciferase	0.569 µM
CCCCCCCCCCCCCCCCCC(=O)OCC(COP(=O)(O)OP(=O)(O)OC[C@@H]1CC[C@H](n2cc(C)c(=O)[nH]c2=O)O1)OC(=O)CCCCCCCCCCCCCCCCC	-	MT-4-6C + MT-4	-	-	plaque count	1 µM
COc1ccc2c(c1)N(C(=O)OC(C)C)[C@@H](CSC)C(=S)N2	-	Primary monocytes/macrophages + Monocyte	-	-	-	0.001 µM
Cc1cc(S(N)(=O)=O)ccc1NC(=O)COc1ccc(Cl)cc1C(=O)c1cc(C#N)cc(OCF)c1	-	HeLa	-	V106A	-	0.0084 µM
NC(=O)c1sc2cncc(N3CCc4ccccc4C3)c2c1N	-	U1	-	-	p24 / ELISA	0.013 µM
Cc1cc(S(N)(=O)=O)ccc1NC(=O)COc1ccc(Cl)cc1C(=O)c1cc(C#N)cc(C(=O)N2CCOCC2)c1	-	HeLa	-	Y181C	-	0.97 µM
Cc1cn([C@H]2C[C@H](N=[N+]=[N-])[C@@H](CO)O2)c(=O)[nH]c1=O	-	HeLa + HeLa-MAGI	IIIB	-	β-galactosidase	0.016 µM
CCNc1cccnc1N1CCN(C(=O)c2cc3cc4c(cc3[nH]2)OCO4)CC1	-	HT4lacZ-1/IIIB + HT4 LacZ-1	IIIB	-	syncytia	0.0098 µM
CC(C)(C)NC(=O)[C@@H]1C[C@@H]2CCCC[C@@H]2CN1C[C@@H](O)[C@H](Cc1ccccc1)NC(=O)[C@H](CC(N)=O)NC(=O)c1ccc2ccccc2n1	-	Primary monocytes + Lymphocytes	BaL	-	p24	0.0049 µM
N#Cc1ccccc1-c1cncc2sc(C(N)=O)cc12	-	U1	-	-	p24 / ELISA	0.946 µM
COc1cc(C#N)cc(C(=O)c2cc(Cl)ccc2OCC(=O)Nc2ccc(S(N)(=O)=O)cc2C)c1	-	HeLa	-	Y181C	-	0.0005 µM
Cc1cn([C@H]2C[C@H](N=[N+]=[N-])[C@@H](COP(=O)(OCCSC(=O)C(C)(C)C)OCCSC(=O)C(C)(C)C)O2)c(=O)[nH]c1=O	-	CEM + CEM TK-	-	-	cytopathic effect / MTT	0.45 µM
NC(=O)c1sc2cncc(N3CCC(C(N)=O)CC3)c2c1N	-	U1	-	-	p24 / ELISA	0.391 µM
Cc1cc(S(N)(=O)=O)ccc1NC(=O)COc1ccc(Cl)cc1C(=O)c1cc(C#N)cc([N+](=O)[O-])c1	-	HeLa	-	V106A	-	0.0231 µM
Nc1ncnc2c1ncn2[C@@H]1O[C@H](OCP(=O)(O)O)C=C1F	4 d	PBMCs	BR-92-025 (subtype C)	-	p24 / ELISA / antigen	5.1 µM
Nc1ncnc2c1ncn2CCOCP(=O)(O)O	-	CBMC	HXB2D (RT-K65R)	RT-K65R	p24	3.5 ± 0.5 µM
CCO/N=C(\c1ccc(Br)cc1)C1CCN(C2(C)CCN(C(=O)c3c(C)cc[n+]([O-])c3C)CC2)CC1	-	PM1	BaL	-	p24	0.0009 µM
Cc1ccnc2c1NC(=O)c1cccnc1N2C1CC1	-	H9	B8 (RT K101I K103N Y181C G190A)	RT-K101I K103N Y181C G190A	p24	>10 µg/mL
C#Cc1ccc(Nc2nccc(Oc3c(C)cc(-c4cn(CC(=O)Nc5ccc(F)cc5)nn4)cc3C)n2)cc1	-	MT-4	IIIB	K103N	MTT	>1.41 µM
Cc1ccnc2c1NC(=O)c1cccnc1N2C1CC1	pseudotyped	-	-	K103N + Y181C	RT activity	>10 µM
CC1(C)Oc2ccc3ccc(=O)oc3c2[C@@H](OC(=O)C23CCC(C)(C(=O)O2)C3(C)C)[C@H]1OC(=O)C12CCC(C)(C(=O)O1)C2(C)C	28 d	Monocytes	-	-	p24	~0.000016 µM
CCOC(=O)[C@H](C)N[P@](=O)(CO[C@@H]1C=C(F)[C@H](n2cnc3c(N)ncnc32)O1)Oc1ccccc1	4 d	PBMCs	BR-92-025 (subtype C)	-	p24 / ELISA / antigen	0.068 µM
CCCCCCCC/C=C/CCCCCCCC(=O)OCC(COP(=O)([O-])OC[C@@H]1CC[C@H](n2ccc(N)nc2=O)O1)OC(=O)CCCCCCC/C=C/CCCCCCCC	-	CEM-CCRF	LAV	-	p24	0.52 µM
CC(=O)c1ccc(C)cc1NC(C(N)=O)c1c(Cl)cccc1Cl	-	MAGI	IIIB	RT-V189I T240I	MTT	1.8 µM
Cc1ccc(-c2ccc3c(c2)C=C(C(=O)Nc2ccc(C[N+](C)(C)C4CCOCC4)cc2)CCC3)cc1	-	MAGI + MAGI-CCR5	BaL	-	β-galactosidase	0.0012 µM

Repeating the first 10 entries:

| smiles | setting | cell line | strain or isolate | changes | method | value |
|---|---|---|---|---|---|---|
| Cc1cn([C@H]2C[C@H](N=[N+]=[N-])[C@@H](CO)O2)c(=O)[nH]c1=O | 3 d | MAGI + MAGI-CCR5 | IIIB | - | β-galactosidase | 0.056 µM |
| Cc1cc(S(N)(=O)=O)ccc1NC(=O)COc1ccc(Cl)cc1C(=O)c1cc(C#N)cc(N(C)C)c1 | - | HeLa | - | Y181C | - | 0.0028 µM |
| Cc1c(Sc2ccccc2)n(COCCO)c(=O)[nH]c1=O | - | CEM(DAY 8) + CEM | IIIB | - | cytopathic effect / MTT | 8.3 µM |
| Cc1ccnc2c1NC(=O)c1cccnc1N2C1CC1 | 3 d | MAGI + MAGI-CCR5 | IIIB | - | β-galactosidase | 0.298 µM |
| O=C(O)P(=O)(O)O | - | HT4LACZ-1 + HT4 LacZ-1 | LAI viral clone (RT-Q161L H208Y) | RT-Q161L H208Y | syncytia | 336 µM |
| CN(C)c1ccnc2sc(C(N)=O)c(N)c12 | - | U1 | - | - | p24 / ELISA | <0.28 µM |
| Cc1cn([C@H]2C[C@H](N=[N+]=[N-])[C@@H](CO)O2)c(=O)[nH]c1=O | - | ACH-2(HIV-1(IIIB)) + ACH2 | IIIB | - | RT activity | >1 µg/mL |
| NC(=O)c1sc2cncc(N3CCC(F)(F)CC3)c2c1N | - | U1 | - | - | p24 / ELISA | 0.219 µM |
| Nc1ccn([C@@]23C[C@@H]2[C@@H](CO)CO3)c(=O)n1 | - | HOS | - | - | luciferase | 440 µM |
| CCCCCCCCCCCCCCCC(=O)OCC(COP(=O)(O)OC[C@H]1O[C@@H](n2cc(C)c(=O)[nH]c2=O)C[C@@H]1N=[N+]=[N-])OC(=O)CCCCCCCCCCCCCCC | - | CEM-CCRF | LAV | - | p24 | 4 µM |